Human monoclonal antibodies against the spike receptor-binding domain (heavy:light variable regions). IC50 against pseudoviruses bearing the spike of naturally observed variants; lower = stronger; >10 µg/ml means not reached at the top dose. No active / inactive call. The stated detection limit is 0.0005 µg/ml; values near or below 0.001 µg/ml lie at the floor of the assay.
B1: BD55-5983 (protein)
chain 1: QVQLQQSGPGLVKPSQTLSLTCTVSGGSIGSGGYYWSWIRQHPGKGLEWIGNIHYSGTTHYNPSLKSRLTISVDTSKNQFSLKLSSVNAADTAVYYCARDSAEGNYLYFGMDVWGQGTTVTVSS
chain 2: DIQMTQSPSSVSASVGDRVTITCRASQGISNWLAWYQQKPGKAPNLLIYAASTLQSGVPSRFSASGSGTDFTLTISSLQPEDFATYYCQQANSFPFTFGPGTKVDI
B2: BD55-5989 (protein)
chain 1: QVQLVQSGAEVKKPGSSVKVSCKASGGTFSSYGINWARQAPGQGLEWMGGIIPIFGTTNYAQKFQGRVTIVADESTDTAYMELSGLRSEDTAVYYCARQIGNSRLDLRGEWGQGTRVTVSS
chain 2: DIQMTQSPSSLSASVGDRVTITCQASQDIGYSLNWFQQRPGKAPQLLIYDASNLEIGVPSRFSGSGSGTDFTFTISSLQPEDIATYYCQQYDDLPLTFGGGTQVE
B3: BD55-5992 (protein)
chain 1: QVQLQESGPGLVTPSQTLSLTCAVSGGSIGSGGYYWTWIRQYPGKGLEWIGKIHYSGSTHYNPSLKSRATMSVDPSKNQFALNLRSVTAADTAVYYCARDSAHGNYLYFGMDVWGQGTTVSVFS
chain 2: DIQMTQSPSSVSASVGDRVTITCRASQGVSTWVAWYQQKPAQAPRLLIYAASTLQTGVPSRFRGSGSGTDFTLTISSLQPDDFATYYCQQANSFPYTFGQGTKLEIR
B4: BD55-1140 (protein)
chain 1: QVQLVQSGAEVKKPGASLKVSCKASGYTFSSHYMHWVRQAPGQGLQWMGIINPSAGSTTYAQKFQGRITMTSDTSTTTVYMELSGLRYDDTAVYYCARDYGFLPHRAYFEYWGQGTLVSVSS
chain 2: EIVLTQSPATLSLSPGERATLSCRASQSISKYLAWYQQKPGQAPRLLIFDASNRATGIPARFSGSGSGTDFTLTISSVEPDDFAVYYCLQRSDWFTFGPGTKVDIK
B5: BD55-6012 (protein)
chain 1: EVQLVESGGGLVQPGRSLRLSCAASGFTFNDYAMHWLRQPPGKGLEWVSSITWSGGLTWKSGGIVYADSVKGRFTISRDSAKNSLYLQMNSLRTEDTALYYCAKDSLMFGDRSSWHNHWFDSWGQGTLVIVSS
chain 2: QSVLTQAPSASGTPGQRVTISCSGSNSNIGSNPVNWYQQLPGTAPKLLMYRNNQRPSGVPDRFSGSKSGTSASLVISGLQSEDEADYYCAAWDDSLNGWVFGGGTKLAVL
B6: BD55-6014 (protein)
chain 1: QVQVVQSAAEVKKPGASVKVSCKASGYTFSNYGISWVRQAPGQGLEWMGWISIYNGDTKYSQKFSGRVAMTTDTSTNTAYLELRSLRFDDTAVYYCARDVRPGYSGYDFLEEPFDHWGQGTLVTVSS
chain 2: QSVLTQPPSASGTPGQRVTISCSGSSSNIGSNPVNWYQQFPGTAPKLLIYSNNQRPSGVPDRFAGSKSGASASLAISGLQSEDEADYYCAAWDDSLNGNWVFGGGTKLTVL
B7: BD55-6017 (protein)
chain 1: QLLESGGGLVQPGGSLRLSCAASGFIFRRYAMNWVRQAPGKGLEWVSTISGSGDDTYYADSVKGRFTMSRDNSKNRLFLQMNSLRAQDTAVYYCAKSIAAAGYDAFDIWGQGTMVTVSS
chain 2: AIQLTQSPSSLSASVRDRVTITCRASQGISNTLAWFQQKPGKPPKLLIYDASTLDSGVPSRFSGSGSGTDFTLTINSLQPEDFATYYCQQFNDYPLTFGGGTKVEF
B8: BD55-6019 (protein)
chain 1: QVQLQESGPGLLKPSETLSLICTVSGGSIGSISYYWGWIRQPPGKALEWIGNIHYSENTYNNPSLKSRVTISKDTSKNQLSLKLSAVTAADTAMYYCARGGYSGYFDVWGQGTLVSVSS
chain 2: DIQMTQSPSTLSASVGDRVTITCRASQNINVWLAWYQQKPGRAPNLLIYKASSVESGVPSRFSGSGSGTEFTLTISSLQPDDFATYYCQHYNDDSVTFGQGTKLEIK
B9: BD55-6028 (protein)
chain 1: VHLVESGGGLVKPGGSLRLSCAASGFTLSTYSMNWVRQAPGKGLEWVSSISSSSSLMFYADSVKGRFTISRDNAKNSLYLQMNSLRADDTAVYYCARELSSTMTADFDLWGQGTLVTVSS
chain 2: DIQMTQSPSSLSASVGDRVTITCRASQSISTYLNWYQHKPGKAPTLLIYAASTLQSGVPSRFSGSGSGTAFTLTISSLQPEDFATYYCQQSYITPQVTFGGGTKVEIK
B10: BD55-6035 (protein)
chain 1: EVQLVESGGGLVQPGGSLRLSCAASGFTFSRYWMTWVRQAPGKGLEWVANIKQDGTEKYYGDSVKGRFTISRDNAKNSLSLQMNSLRADDTAVYYCAGAPVSYDILAPEWFDPWGQGTLVTVSS
chain 2: SYELTQPPSVSVSPGQTARITCSGDRLPTQYTCWYQQKPGQAPVLIIYKDTKRPSGIPERFSGSTSGTRATLTISGVQAEDEADYYCQTADSVLWVFGGGTKLTVL
B11: BD55-6037 (protein)
chain 1: EVQLVESGGGLVQPGGSLRLSCAASGFTFSNYAMHWVRQAPGKGLEYVSAITSNGDGTFYASSVEGRFTISRDNSKNTLYLQMGSLRAEDMAVYYCAREGTADVLLYFDYWGQGTLVTVSS
chain 2: DIQMTQSPSSMSAFVGDRVTITCRAGQSINRFLNWYQQKPGKAPKLLIYAASSLQSGVPSRFSGSGSGTDFTLTISGLQPEDFATYYCQQSYITPFYTFGQGTKLEMK
B12: BD55-6040 (protein)
chain 1: EVQLLESGGRLVQPGGSLRLSCAASGFTFSSSVMSWVRQAPGKRLQWVSGIYGSGENTYYADSVKGRFTISSDNSKNTLYLQMNSLRVEDTAVYYCAKDLGFCGGDCYRWSGVAFDNWGQGTMVTVSA
chain 2: DIQMTQSPSSLSASVGDRVTITCRASQSINIYLNWYQKKPGKAPKLLIYAALSLQSGVPSRFSGSGSGTEFTLTISGLQPEDFATYYCQQSYSTPLTFGGGTKVEIK

target: SARS-CoV-2 Omicron BA.1 spike pseudovirus; test: pseudovirus neutralization IC50; higher = weaker neutralization
Experimental: (§1)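 Single-round VSV luciferase pseudovirus mixed with antibody dilutions for 1 h and put on Huh-7 cells for about a day; IC50 from the dose curve.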

Binder	pseudovirus neutralization IC50 [µg/mL]
B1	> 10
B2	> 10
B3	> 10
B4	> 10
B5	> 10
B6	> 10
B7	> 10
B8	> 10
B9	> 10
B10	> 10
B11	> 10
B12	> 10

target: SARS-CoV-2 Omicron BA.2 spike pseudovirus; test: as above
Experimental: as §1

Binder	pseudovirus neutralization IC50 [µg/mL]
B1	> 10
B2	> 10
B3	> 10
B4	> 10
B5	> 10
B6	> 10
B7	> 10
B8	> 10
B9	> 10
B10	> 10
B11	> 10
B12	> 10

target: SARS-CoV-2 Omicron BA.2.75 spike pseudovirus; test: as above
Experimental: as §1

Binder	pseudovirus neutralization IC50 [µg/mL]
B1	> 10
B2	> 10
B3	> 10
B4	> 10
B5	> 10
B6	> 10
B7	> 10
B8	> 10
B9	> 10
B10	> 10
B11	> 10
B12	> 10

target: SARS-CoV-2 Omicron BA.5 spike pseudovirus; test: as above
Experimental: as §1

Binder	pseudovirus neutralization IC50 [µg/mL]
B1	> 10
B2	> 10
B3	> 10
B4	> 10
B5	> 10
B6	> 10
B7	> 10
B8	> 10
B9	> 10
B10	> 10
B11	> 10
B12	> 10

target: SARS-CoV-2 Omicron BQ.1.1 spike pseudovirus; test: as above
Experimental: as §1

Binder	pseudovirus neutralization IC50 [µg/mL]
B1	> 10
B2	> 10
B3	> 10
B4	> 10
B5	> 10
B6	> 10
B7	> 10
B8	> 10
B9	> 10
B10	> 10
B11	> 10
B12	> 10

target: SARS-CoV-2 Omicron XBB spike pseudovirus; test: as above
Experimental: as §1

Binder	pseudovirus neutralization IC50 [µg/mL]
B1	> 10
B2	> 10
B3	> 10
B4	> 10
B5	> 10
B6	> 10
B7	> 10
B8	> 10
B9	> 10
B10	> 10
B11	> 10
B12	> 10

target: SARS-CoV-2 early D614G spike pseudovirus; test: as above
Experimental: as §1

Binder	pseudovirus neutralization IC50 [µg/mL]
B1	> 10
B2	> 10
B3	0.486
B4	> 10
B5	> 10
B6	> 10
B7	> 10
B8	> 10
B9	> 10
B10	> 10
B11	> 10
B12	> 10
